The amount applied is not stated for every result.
test system: Vero E6 cells; type: cell-based, African Green Monkey

| Structure (SMILES) | log2Foldcha[nge] |
| --- | --- |
| CC(=O)O[C@H](CC(=O)[O-])C[N+](C)(C)C [Acetyl-L-carnitine] | −0.6736 |
| O=C(O)C[C@H](C(=O)O)[C@@H](O)C(=O)O [Isociitrate] | −0.4479 |
| NCCS(=O)O [Hypotaurine] | 0.1961 |
| O=C(O)CNC(=O)c1ccccc1 [Hippurate] | −1.068 |
| CC(=O)C(O)O.O=P(O)(O)O [Dihydroxyacetone Phosphate] | 0.3987 |
| N[C@@H](CS(=O)O)C(=O)O [L-Cysteinesulfinic acid] | 2.299 |
| NCCOP(=O)(O)OP(=O)(O)OC[C@H]1O[C@@H](n2ccc(N)nc2=O)[C@H](O)[C@@H]1O [CDP-ethanolamine] | −0.1028 |
| O=C(O)[C@H](O)[C@@H](O)[C@H](O)[C@H](O)CO [D-Gluconate] | 0.1346 |
| O=CC(O)COP(=O)(O)O (stereo not drawn) [Glyceraldehyde 3-phosphate] | −0.1798 |
| NC(=O)NC(CC(=O)O)C(=O)O (stereo not drawn) [Ureidosuccinic acid] | 0.6248 |
| NC1(C(=O)O)CC1 | −0.583 |
| O=C(O)/C=C/c1c[nH]cn1 [Urocanic acid] | −0.7621 |
| CC(=O)N[C@@H](CS)C(=O)O [N-Acetylcysteine] | −0.1883 |
| NCCCCNCCCN [Spermidine] | −0.5127 |
| C[N+](C)(C)CC(=O)O [Betaine] | 0.1735 |
| Cn1cnc(C[C@H](N)C(=O)O)c1 [Compound 1-Methyl-L-Histidine, 1-Methyl-L-Histidine] | −0.5011 |
| N=CN1c2c(nc(N)[nH]c2=O)NCC1CNc1ccc(C(=O)N[C@@H](CCC(=O)O)C(=O)O)cc1 (stereo partly drawn) [Compound 5-Formimino-tetrahydrofolate, 5-Formimino-tetrahydrofolate] | −1.582 |
| C=C(OP(=O)(O)O)C(=O)O [Phosphoenol-pyruvate] | 0.4137 |

— patent US20240041851A1 (priority 2020, published 2024)
